A mixed list of measured activities; the numbers were collected in NIAID ChemDB.

All rows: cytotoxicity tests; measure: CC50

Conditions beyond the fields shown may differ between rows. a–b is a range or a potency band. CCn: concentration that lowers growth or viability of the cells by n%. Blank or dashed fields: not listed here.

compound,method,cells,result
O=C(NCc1ccc(Cl)cc1)c1cn2c(CCO)cc3cc(CN4CCOCC4)cc(c1=O)c32,MTS,BCBL-1,>20.8 µM
O=c1[nH]cnc2c1ncn2O[C@H]1CO[C@@H](CO)O1,-,2.2.15,>100 µg/mL
Nc1nc(=S)n([C@@H]2O[C@H](CO)[C@@H](O)[C@@H]2O)cc1/C=C/c1ccccc1,-,RPMI8226,>258.7 µM
Nc1ncnc2c1ncn2C[C@@H](CO)OCP(=O)(O)O,neutral red,Huh7.5.1,>100 µM
O=C1NC(=NCCc2ccc(Cl)c(Cl)c2)S/C1=C\c1ccc(-c2ccc(C(=O)O)c(O)c2)o1,MTT,HT-29,>100 µM
CN(C)c1cccc2c(S(=O)(=O)Nc3ccc(NC(=O)C(C)(C)CCl)cc3)cccc12,-,Mouse fibroblast cell lines,15.6 µM
Nc1nc2c(ncn2COC(CO)CO)c(=O)[nH]1,-,MRS-5,>100 µg/mL
C/C=C/c1cc(=O)c(C(=O)c2c(OC)cc(OC)cc2C(=O)OC)co1,MTT,Huh7.5.1,>50 µM
CCOC(=O)CCCCCOc1cccc(CN(C(=O)c2ccc(-c3cccc(O)c3)cc2)C(C)C)c1,-,BJ,>20 µM
CC1(C)CCC[C@]2(C)[C@H]3C[C@@H](C4=CCOC4=O)CC3=CC[C@@H]12,absorbance,ASK (rat glioma cells),33.7 µM
O=C(c1cc(=O)n(O)c2ncccc12)N1CCc2ccccc2C1,-,HeLa,<100 µM
N#Cc1cnn(Cc2ccccc2)c1/N=c1\ssnc1Cl,-,K562,5 µM
CCOc1cccc(-c2ccc(C(=O)N(Cc3cccc(OCCCCCC(=O)OC(=O)O)c3)C(C)C)cc2)c1,-,RAJI,>20 µM
Nc1ccn([C@H]2CC[C@@H](CO)S2)c(=O)n1,-,ATH8,>80 µM
Nc1nc(N)c2ncn(C[C@H]3CC[C@H](P(=O)(O)O)O3)c2n1,-,FLOW 2002,>100 µg/mL
Cc1cc(Cl)ccc1NCc1cc2ccccc2oc1=O,MTS,Ava5,188 µM
O=C1/C(=C/c2ccc(-c3cc(C(F)(F)F)ccc3Cl)o2)SC(=S)N1Cc1ccc(Cl)cc1,MTT,Ramos,3.8 µM
O=c1ccn([C@@H]2S[C@H](CO)C[C@H]2F)c(=O)[nH]1,-,ATH8,>80 µM
COC(=O)c1cc(O)c(O)c(=O)cc1C,absorbance,CEM-SS,8.5 µM
CCCc1cc(=O)oc2c3c(c4c(c12)OC(C)(C)CC4)O[C@@H](C)[C@H](C)[C@@H]3O,-,AA5,10–20 µM
Nc1ccn([C@@H]2S[C@H](CO)C[C@H]2F)c(=O)n1,-,ATH8,>80 µM
CCCn1nc(C)c(N=O)c1-c1cc(C)on1,-,MIT-4,20 µM
CC(C)N(Cc1cccc(OCCCCCC(=O)OC(=O)O)c1)C(=O)c1ccccc1,-,HEK 293,>20 µM
CC/C=C\C/C=C\C/C=C\C/C=C\C/C=C\CCCC(=O)OCC1=C[C@H]2[C@@H]3C(C)(C)[C@]3(OC(=O)CCC/C=C\C/C=C\C/C=C\C/C=C\C/C=C\CC)[C@H](O)[C@@H](C)[C@]2(O)[C@@H]2C=C(C)C(=O)[C@@]2(O)C1,MTT,C8166,86.42 µM
Cc1c[nH]c(=O)n(C[C@H]2CS[C@H](P(=O)(O)O)O2)c1=O,-,FLOW 2002,>100 µg/mL
Cc1cc(-c2c(N=O)c(C)nn2C)no1,-,MIT-4,11.6 µM
C[C@@H]1Cc2nn3c(c2CN1C(=O)c1ccc(Cl)c(C#N)c1)C(=O)N([C@@H](C)c1cccc(OC(F)F)c1)CC3,luminescence,HepG2.117,>50 µM
CCCc1cn([C@H]2C[C@H](O)[C@@H](CO)O2)c(=S)[nH]c1=O,-,RPMI8226,>277.6 µM
Cc1cc(-c2nn(CCO)c(C)c2N=O)no1,-,MIT-4,3.35 µM
CC(C)(CO)C(=O)Nc1ccc(NS(=O)(=O)c2cccc3c(N)cccc23)cc1,-,Human embryonic lung fibroblasts,125 µM
Nc1ncnc2c1ncn2[C@H]1[C@H](O)[C@H](O)[C@@H](CO)C12CC2,-,Huh7 ET,>100 µM
Nc1ncnc2c1ncn2CC[C@@H](CO)OCP(=O)(O)O,-,MRS-5,>100 µg/mL
O=c1cc(NCc2ccncc2)c2cccnc2n1O,-,HeLa,<100 µM
O=c1[nH]cnc2c1ncn2O[C@@H]1CS[C@@H](CO)O1,-,VERO,>100 µg/mL
C[C@@H]1Cc2nn3c(c2CN1C(=O)c1ccc(Cl)c(C#N)c1)C(=O)N([C@H](C)c1ccc(C(F)(F)F)cc1)CC3,luminescence,HepG2.117,11.1 µM
Cc1cn([C@H]2C[C@H](O)[C@@H](CO)O2)c(=S)[nH]c1=O,-,RPMI8226,>302.6 µM
Nc1nc2c(ncn2COCCO)c(=O)[nH]1,-,COS 1,129 µg/mL
O=c1[nH]c(=S)n([C@@H]2O[C@H](CO)[C@@H](O)[C@@H]2O)cc1CCO,-,RPMI8226,>244.8 µM
N#Cc1ncn(CCc2ccc(Cl)cc2Cl)c1/N=c1\ssnc1Cl,-,K562,8 µM
CCCCCCCCCCCCCCOc1ccc(C(C)=O)o1,-,R-HELA,25–50 µg/mL
COC(=O)c1cc(=O)c(O)c(OC)cc1C,absorbance,CEM-SS,>50 µM
Nc1ccn([C@H]2CC[C@@H](CO)O2)c(=O)n1,-,MM,>10 µM
O=c1oc2ccccc2cc1CNc1ccccc1,MTS,Ava5,>200 µM
CN(C)c1cccc2c(S(=O)(=O)Nc3ccc(NC(=O)C(C)(C)CO)cc3)cccc12,-,Mouse fibroblast cell lines,62.5 µM
CCCCNC1=CC(C(=O)O)=CC(S(N)(=O)=O)C1Oc1ccccc1,-,RH9,3.7 µM
O=c1cc(N2CCC(N3CCOCC3)CC2)c2cccnc2n1O,-,HeLa,<100 µM
C=Cc1cn([C@@H]2O[C@H](CO)[C@@H](O)[C@@H]2O)c(=S)nc1N,-,RPMI8226,>266.3 µM
CCOC(=O)c1ccc(NCc2cc3ccccc3oc2=O)cc1,MTS,Ava5,128 µM
Nc1ncnc2c1ncn2C[C@H]1CS[C@@H](P(=O)(O)O)O1,-,FLOW 2002,>100 µg/mL
CC(C)(CCl)C(=O)Nc1ccc(NS(=O)(=O)c2cccc3ccccc23)cc1,-,Mouse fibroblast cell lines,25 µM
CC1=C[C@H]2[C@@]3(O)[C@H](C)[C@@H](O)[C@]4(OC(=O)CCCC[C@@H]5SC[C@@H]6NC(=O)N[C@@H]65)[C@H]([C@@H]3C=C(CO)C[C@]2(O)C1=O)C4(C)C,MTT,C8166,>200 µM
Cn1cc(NC(=O)Nc2cc(C(=O)Nc3cc(C(=O)Nc4ccc(S(=O)(=O)O)c5cc(S(=O)(=O)O)ccc45)n(C)c3)n(C)c2)cc1C(=O)Nc1cc(C(=O)Nc2ccc(S(=O)(=O)O)c3cc(S(=O)(=O)O)ccc23)n(C)c1,-,Monocytes,<200 µM
CC1=C[C@H]2[C@@]3(O)[C@H](C)[C@@H](OC(=O)/C=C/c4ccccc4)[C@]4(OC(=O)/C=C/c5ccccc5)[C@H]([C@@H]3C=C(COC(=O)/C=C/c3ccccc3)C[C@]2(O)C1=O)C4(C)C,MTT,C8166,>200 µM
CCOC(=O)CC(=O)NCCc1ccc(OC)c(OC)c1,-,HEK 293,<7.5 µM
CC(C)(C)n1ncc(C#N)c1/N=c1\ssnc1Cl,-,K562,5 µM
Nc1nc2c(ncn2/C=C2/CC23COP(=O)(O)OC3)c(=O)[nH]1,-,MEF,301 µM
C=Cc1cn([C@@H]2O[C@H](CO)[C@@H](O)[C@@H]2O)c(=S)[nH]c1=O,-,RPMI8226,>266.3 µM
Cc1cc(-c2cc(C)on2)n(CCO)n1,-,MIT-4,>200 µM
O=c1ccn([C@H]2CC[C@@H](CO)S2)c(=O)[nH]1,-,ATH8,>80 µM
Nc1nc(=S)n([C@@H]2O[C@H](CO)[C@@H](O)[C@@H]2O)cc1CO,-,RPMI8226,>253.5 µM
OC[C@H]1O[C@H](On2cnc3c(Cl)ncnc32)CS1,-,VERO,>100 µg/mL
C=CCCN(Cc1cc(OC)cc(OC)c1)C(=O)CC(C)=O,-,BJ,<7.5 µM
N=C(N)c1cccc(OCc2ccc(OCc3ccccc3)cc2)c1,-,HUT4-3/SX22-1,<100 µM
CCOC(=O)CCCCCOc1cccc(CN(C(=O)c2ccc(-c3cc(F)cc(OC)c3)cc2)C(C)C)c1,-,RAJI,>20 µM
CC(C)(CO)C(=O)Nc1ccc(NS(=O)(=O)c2cccc3ccccc23)cc1,-,Mouse fibroblast cell lines,94 µM
CCn1nc(-c2cc(C)on2)cc1C,-,MIT-4,>200 µM
CCN(CC)Cc1cnc2c(C(=O)Nc3ccc4nc[nH]c4c3)cnn2c1,MTT,293T,>20 µM
CCn1nc(C)c([N+](=O)[O-])c1-c1cc(C)on1,-,MIT-4,>200 µM
Cc1ccc(COc2cccc(C(=N)N)c2)cc1,-,HUT4-3/SX22-1,<100 µM
O=C(NCc1ccccc1)c1c(O)c2cccnc2n(O)c1=O,-,HeLa,<100 µM
CCOC(=O)CCCCCOc1cccc(CN(C(=O)c2ccc(Br)cc2)C(C)C)c1,-,HEK 293,>20 µM
COc1ncnc2c1ncn2O[C@@H]1CS[C@@H](CO)O1,-,2.2.15,>100 µg/mL
CCCCCCCCCCCCCCCCCCOCCOP(=O)(O)CO[C@@H](CO)Cn1cnc2c(N)ncnc21,neutral red,Huh7.5.1,>100 µM
CN1CCc2c(sc(/N=c3\ssnc3Cl)c2C#N)C1,-,K562,7 µM
CC1=C[C@H]2c3c(ccc4oc5cc(O)cc(O)c5c(=O)c34)OC(C)(C)[C@H]2CC1,-,HOG.R5,26.6 µM
Nc1ncnc2c1ncn2C[C@H](CO)OCP(=O)(O)O,neutral red,Huh7.5.1,>100 µM
C[C@@H]1Cc2nn3c(c2CN1C(=O)c1ccc(Cl)c(C#N)c1)C(=O)N([C@@H](C)c1ccc(C(F)(F)F)cc1)CC3,luminescence,HepG2.117,>50 µM
NC(N)=Nc1cccc(OCc2ccc(Br)cc2)c1,-,HUT4-3/SX22-1,<100 µM
CC(=O)Nc1ccc(SSc2ccc(NC(C)=O)cc2C(N)=O)c(C(N)=O)c1,trypan blue,U1,>100 µM
Nc1ccn([C@H]2CC[C@@H](CO)O2)c(=O)n1,-,PBLC,43 µg/mL
C/C=C(\C)C(=O)c1c(OC)c2c(c3c(C)cc(=O)oc13)OC(C)(C)C=C2,-,HOG.R5,16.9 µM
N#Cc1cnn(-c2ccccc2)c1/N=c1\ssnc1Cl,-,K562,5 µM
N=C(N)c1cccc(OCc2cccc([N+](=O)[O-])c2)c1,-,HUT4-3/SX22-1,<100 µM
Nc1nc2c(ncn2C[C@@H]2CO[C@H](P(=O)(O)O)O2)c(=O)[nH]1,-,FLOW 2002,>100 µg/mL
Nc1nc2c(ncn2O[C@H]2CO[C@@H](CO)O2)c(=O)[nH]1,-,VERO,>100 µg/mL
C[C@@H]1Cc2nn3c(c2CN1C(=O)c1ccc(Cl)c(C#N)c1)C(=O)N([C@H](C)c1cccc(OC(F)(F)F)c1)CC3,luminescence,HepG2.117,>50 µM
O=c1oc(-c2ccccc2)ns1,ATP,Vero cell,12 µM
O=c1cc(NCc2cnc(-c3ccccc3)[nH]2)c2cccnc2n1O,-,HeLa,<100 µM
CCn1nc(C)cc1-c1cc(C)on1,-,MIT-4,>200 µM
CCCCCCCCCCCCCCCCCCCC(=O)O[C@@H]1[C@@H](C)[C@@]2(O)[C@@H](C=C(COC(C)=O)C[C@]3(O)C(=O)C(C)=C[C@@H]23)[C@@H]2C(C)(C)[C@]12O,MTT,C8166,>200 µM
Nc1ccn([C@H]2C[C@@H](F)[C@@H](CO)S2)c(=O)n1,-,ATH8,>80 µM
COc1ncnc2c1ncn2O[C@H]1CO[C@@H](CO)O1,-,VERO,>100 µg/mL
C[C@@H]1Cc2nn3c(c2CN1C(=O)c1ccc(Cl)c(C#N)c1)C(=O)N(Cc1ccc2nccn2c1)CC3,luminescence,HepG2.117,>50 µM